This is an account of results in patent publication US20210261570A1, “ANTIBIOTIC RESISTANCE BREAKERS” (KING'S COLLEGE LONDON, priority 2017, published 2021).

This assay has as its system S. aureus SA 282. The experiment in a line: MIC, MDR strains with target mutations. It counts as cell-based. Details: unit not given beside the values.

`C[C@H]1COc2c(N3CCN(C)CC3)c(F)cc3c(=O)c(C(=O)O)cn1c23` [Levofloxacin, levofloxacin] registered an MIC of 16.
